The chains behind the UniProt entries cited, without tags or fusion partners. Residues count along the entry.
UniProt P0C6X5, 2940-3242 limits assumed: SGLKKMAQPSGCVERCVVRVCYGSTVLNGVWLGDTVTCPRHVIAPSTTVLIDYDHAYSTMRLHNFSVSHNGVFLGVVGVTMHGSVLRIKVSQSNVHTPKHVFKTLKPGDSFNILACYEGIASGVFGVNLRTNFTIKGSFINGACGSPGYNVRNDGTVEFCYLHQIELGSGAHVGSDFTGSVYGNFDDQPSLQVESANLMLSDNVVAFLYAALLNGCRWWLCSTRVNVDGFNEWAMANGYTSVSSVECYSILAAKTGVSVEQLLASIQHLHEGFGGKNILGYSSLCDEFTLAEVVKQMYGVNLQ
UniProt P0C6X9, 3334-3635 limits assumed: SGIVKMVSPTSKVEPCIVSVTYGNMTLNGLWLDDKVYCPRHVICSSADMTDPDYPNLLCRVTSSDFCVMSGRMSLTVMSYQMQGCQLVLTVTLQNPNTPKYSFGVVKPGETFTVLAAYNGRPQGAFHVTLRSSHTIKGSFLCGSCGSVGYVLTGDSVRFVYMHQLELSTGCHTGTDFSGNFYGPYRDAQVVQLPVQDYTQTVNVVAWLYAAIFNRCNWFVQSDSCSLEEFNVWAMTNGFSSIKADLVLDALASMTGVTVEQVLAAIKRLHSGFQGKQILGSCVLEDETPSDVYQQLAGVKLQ

According to publication PMC11196219:

Columns and labels:
Assay in all cases: Mpro-On assay
NL63-Mpro = NL63-Mpro (Human coronavirus NL63, UniProt P0C6X5)
poliovirus protease = poliovirus protease (Poliovirus type 1, UniProt P03300); details: polio protease
HKU9-Mpro = HKU9-Mpro (Bat coronavirus HKU9, UniProt P0C6W5)
MHV-Mpro = MHV-Mpro (Murine coronavirus, UniProt P0C6X9)

| Compound | inhibitor potency (dsRed signal), in words (NL63-Mpro) | inhibitor potency (dsRed signal), in words (poliovirus protease) | inhibitor potency (dsRed signal), in words (HKU9-Mpro) | inhibitor potency (dsRed signal), in words (MHV-Mpro) |
| --- | --- | --- | --- | --- |
| Cn1cnc(Cn2c(=O)[nH]/c(=N\c3cc4cn(C)nc4cc3Cl)n(Cc3cc(F)c(F)cc3F)c2=O)n1 | not effective | not effective | less effective | not effective |
| CC(C)(C)[C@H](NC(=O)C(F)(F)F)C(=O)N1C[C@H]2[C@@H]([C@H]1C(=O)N[C@H](C#N)C[C@@H]1CCNC1=O)C2(C)C | mild effect | no effect | moderate effect | no effect |
